Test results taken from US20240254174A1.

Assays:
[1] = molecular target: α7 nAChR (nicotinic acetylcholine receptor), expressed in Xenopus laevis oocytes (Human) (UniProt P36544); experiment: cell-based or functional assay
[2] = molecular target: at least four other nAChR subtypes; experiment: cell-based or functional assay

“RVG peptide (rabies viral glycoprotein peptide)” was tested. Which inhibition of ACh-mediated currents at 100 µM peptide (rapid screening) [1] did it give?
Its inhibition of ACh-mediated currents at 100 µM peptide (rapid screening) is 80 % inhibition.

And the inhibition of ACh-mediated currents at 100 µM peptide (rapid screening) [2]?
Its inhibition of ACh-mediated currents at 100 µM peptide (rapid screening) is > 25 % inhibition.
